Reference: patent publication US20250026813A1, “Antibodies against sars-cov-2 and uses thereof” (published 2025)

B1: IMPI-024 (antibody, V domains shown)
VH: EVQLVQSGAEVKKPGESLKISCKGSGYSFTSYWIGWVRQMPGKGLEWMGIIYPGDSDTRYSPSFQGQVTISADKSISTAYLQWSSLKASDTAMYYCVRSYNWNYFDYWGQGTLVTVSS
VL: AIQLTQSPSSLSASVGDRVTITCRASQGISSGLAWYQQKAGKAPKLLIYDVSSLESGVPSRFSGSGSGTDFTLTISSLQPEDFATYYCQQFLSYPWTFGQGTKVEIK
B2: IMPI-022 (antibody, V domains shown)
VH: EVQLVESGGGLVQPGRSLRLSCAASGFTFDDYAMHWVRQAPGKGLEWVSGITWNSGSIGYADSVKGRFTISRDNAKNSLYLHMNSLRVEDTALYYCAKDLQGDYYYYGVDVWGQGTTVTVSS
VL: B1 VL with G32A, A40P, I48L, V51A, E55V, G66R, L92I, W96L, Q100G, K103R
B3: IMPI-027 (antibody, V domains shown)
VH: QVQLQESGPGLVKPSQTLSLTCTVSGGSISSYGYYWNWIRQHPGKGLEWIGYIYYSGSTYYNPSLKSRVTISVDTSKNQLSLRLNSVSAADTAVYYCARDFGGNSNYFDYWGQGTLVTVSS
VL: B1 VL with A25T, G32A, A40P, V51A, L92N, W96L, Q100G
B4: IMPI-033 (antibody, V domains shown)
VH: B3 VH with N37S, I71M
VL: B1 VL with G32A, A40P, K45N, V51A, L92N, Y94S, W96L, Q100G
B5: IMPI-054 (antibody, V domains shown)
VH: EVQLVESGGGLIQPGGSLRLSCAASGLTVSSNYMSWVRQAPGKGLEWVSIIYSGGSTYYADSVKGRFTISRDNSKNTLYLQMNSLRAEDTAVYYCARLGGYYYYGMDVWGQGTTVTVSS
VL: DIQMTQSPSSLSASVGERVTITCQASQDIRNYLNWYQKKPGKAPKLLIYDSSNLETGVPSRFSGSGSGTDFTFTISSLQPEDIATYYCQQYDNLPITFGQGTRLEIK
B6: IMPI-042 (antibody, V domains shown)
VH: B5 VH
VL: B5 VL with S65G
B7: IMPI-055 (antibody, V domains shown)
VH: QVQLVQSGAEVKKPGASVKVSCKASGYTFTSYDINWVRQATGQGLEWMGWMNPNSGNTGYAQKFQGRVTMTRDTSINTAYMELSSLRSEDTAVYFCARGGRYCSDVTCYSGEPFDYWGQGTLVTVSS
VL: EIMLTQSPDFQSVTPKEKVTITCRASQSIGSSLHWYQQKPDQSPKLLIKFASQSISGVPSRFSGSGSGTDFTLTINSLEAEDAAAYYCHQSSSLPHTFGPGTKVEIK
B8: IMPI-059 (antibody, V domains shown)
VH: EVQLVESGGGLIQPGGSLRLSCAASGFTVSSIYMSWVRQAPGKGLEWVSIIYSRGSTDYADSVKGRFTISRDISKNTLYLQMNSLRAEDTAVYYCARDGTMVRGVHAFDIWGQGTMVTVSS
VL: DIQMTQSPPSLSASIGDRVTITCQASQDISNYLNWYQQKPGKAPKLLIYDASNLETGVPSRFSGSGSGTDFTLTISNLQPEDIVTYYCQQYDNLPSSFGQGTKLEIK
B9: IMPI-032 (antibody, V domains shown)
VH: QVQLQESGPGLVKPSGTLSLTCAVSGGSISSNKWWSWVRQPPGKGLEWIGEIDHSGSTMYNPSLKSRVTISVDKSKNQFSLKLNSVTAADTAVYYCTGEGYNWNYWGQGTRVTVSS
VL: DVVMTQSPLSLPVTLGQTASISCRSSQSLLYTDGNTYLSWFQQRPGQSPRRLIYKVSKWESGVPDRFSGSGSGTDFTLKISRVEAEDVGIYYCMQGTHWPLTFGGGTKVEIK
B10: IMPI-029 (antibody, V domains shown)
VH: EVQLVESGGGLIQPGGSLRLSCAASGVTVSSNYMNWVRQAPGKGLEWVSVIYSGGSTYYADSVKGRFTISRDNSKNTLFLQMNSLRAEDSAVYYCARDLGPYGVDVWGQGTTVTVSS
VL: DIQLTQSPSFLSASVGDRVTITCWASQGISSYLAWYQQKPGKAPKLLIYAASTLQSGVPSRFSGSGSGTEFTLTISSLQPEDFATYYCQELNSYPLTFGQGTRLEIK
B11: IMPI-047 (antibody, V domains shown)
VH: B10 VH with V27F, F79Y, A87T, S90T, G100V, P101A, V104M
VL: B10 VL with L46V, E90L, Y94N, Q100G, R103K, L104V
B12: IMPI-017 (antibody, V domains shown)
VH: B10 VH with S25A, V27L, A40V, F79Y, S90T, P101T, Y102L, V104M
VL: B10 VL with S31T, E90Q, P95L, L96P, R103K, L104V
B13: IMPI-005 (antibody, V domains shown)
VH: B10 VH with V27F
VL: B10 VL
B14: IMPI-021 (antibody, V domains shown)
VH: B10 VH with N35S, Y58F, F79Y, S90T, G100S, P101Y, V104M
VL: B10 VL with R61K, E90Q, L96C, T97S, R103K
B15: IMPI-060 (antibody, V domains shown)
VH: B10 VH with N35S, Y58F, F79Y, S90T, G100S, P101Y, V104M
VL: B10 VL with R61K, E90Q, L96S, T97S, R103K
B16: IMPI-006 (antibody, V domains shown)
VH: QLQLQESGPGLVKPSETLSLTCTVSGGSISNSNYYWGWIRQPPGKGLEWIGSIYYSGRTYYNPSLKSRVTISVDTSKNQFSLKLSSVTAADTAVYYCARMGLLWFGEFYGMDVWGQGTTVTVSS
VL: DIQMTQSPSSLSASVGDRVTITCRASQGISSWLAWYQQKPEKAPKSLIYDASSLQRGVPSRFSGSGSGTDFTLTISSLQPEDFASYYCQQYNSYPLTFGGGTRVEIK
B17: IMPI-063 (antibody, V domains shown)
VH: EVQLVESGGGVVRPGGSLRLSCAASGFTFDDYGMSWVRQAPGKGLEWVSGIYWNGGSTGYADSVKGRFTISRDNAKNSLYLQMNSLRAEDMALYYCARGVGATDYWGQGTLVTVSS
VL: EIVLTQSPGTLSLSSGERATLACRASESVRGSFLAWYQQKPGQAPRLLIYGASRRATGIPDRFSGSGSGTDFTLTISRLEPEDFAVYYCQQYGNSPMCSFGQGTKLEIK

Molecular target: RBD domain of the SARS-CoV-2 spike protein (Acro Biosystems SPD-C52H3), His tag (SARS-CoV-2, UniProt P0DTC2 319-537)

| Binder | HTRF deltaF |
| --- | --- |
| B1 | 225 deltaF |
| B2 | -2.4 deltaF |
| B3 | 318 deltaF |
| B4 | 454 deltaF |
| B5 | 818 deltaF |
| B6 | 121 deltaF |
| B7 | 983 deltaF |
| B8 | 882 deltaF |
| B9 | 4 deltaF |
| B10 | 1180 deltaF |
| B11 | 899 deltaF |
| B12 | 894 deltaF |
| B13 | 608 deltaF |
| B14 | 597 deltaF |
| B15 | 217 deltaF |
| B16 | 331 deltaF |
| B17 | -7.3 deltaF |

Positions count from the first letter of the chain named.
